{
  "source": "patent US20240042259A1",
  "experiment": "Relative hydrolytic reactivity of methyl paraoxon versus triphenyl phosphate (separate experiment)",
  "settings": "hydrolysis with aminoguanidine imines",
  "data": [
    {"smiles": "COP(=O)(OC)Oc1ccc([N+](=O)[O-])cc1", "values": [
      {"measurement": "reaction rate relative to triphenyl phosphate (4)", "result": 1.2, "unit": "times"}
    ]}
  ]
}
